# PubChem BioAssay AID504761, Drosophila RNAi Screening Center | 2011
# Aim: 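Genome-wide fly cell screen for genes dengue virus requires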 (primary screen)
# Cell system: D.Mel-2 cells from Drosophila
# Reagent: long dsRNA against Drosophila genes
# Challenge: infection with dengue virus type 2; dose and infection time not stated
# Detection: 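Cells stained for dengue envelope protein and imaged; percent of infected cells per well on duplicate plates, ranked by infection, with stained nuclei counted for cell number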
# Direction: infection score: higher = more virus-infected cells; cell count: higher = more cells in the well
# Rule for the call: 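Low infection ranks in the two replicates (chance level up to 0.065) followed by a retest with a 1.5-fold or larger significant decrease, p below 0.05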
# Meaning of the calls: active = confirmed: knock-down lowers infection; inactive = not picked or not confirmed
# The deposit covers about 22,000 reagents; this is a random part of those with a known target gene and a result. Of all reagents, 116 (0.52%) were called active. 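Calls depend on retest data that are not deposited; infection was ranked per plate without normalising between plates; the unit of the infection score is not given.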 The raw values are shown without normalisation. Entries without a mark were called inactive. A plus sign joins genes that one reagent is predicted to hit. The record does not give: the amount of reagent, the time to read-out.
target,DRSC id,"infection score, replicate 1","infection score, replicate 2","cell count, replicate 1","cell count, replicate 2"
CAH14,DRSC04234,5.23,11.4,6802,6736
CAH14,DRSC22160,7.78,10.8,4728,6113
CG18596,DRSC15355,12.8,2.22,6772,6580
CG32485,DRSC22666,5.31,16.5,6912,5931
Arv1,DRSC11491,0.6,0.77,6207,5961
Vha55,DRSC16896,0.22,11.9,454,2181
Vha55,DRSC26184,3.04,4.69,1021,4758
acs,DRSC08185,5.51,6.31,6548,6452
acs,DRSC27629,11.1,17.2,6407,6419
lectin-24Db,DRSC00553,2,3.62,6242,5862
Nrx-1,DRSC16184,2.84,1.15,5951,6457
Vps29,DRSC00666,2.49,1.04,6378,6910
CG4301,DRSC19886,4.94,1.74,7023,7117
CG11269,DRSC04094,20.9,8.01,6368,6189
SWIP,DRSC19540,4.86,2.82,6754,6878
Sirt6,DRSC16010,2.84,6.43,6486,6815
Sirt6,DRSC29965,27.3,8.85,5144,6137
Vti1b,DRSC16283,1.27,2.11,6007,6534
Vti1b,DRSC16284,2.93,4.66,6487,6055
Mabi,DRSC02489,4.92,12.9,6462,6651
Mabi,DRSC29933,9.93,4.56,5611,5239
CG18268 + CG3014,DRSC15319,8.56,24.7,6188,4201
CG32645,DRSC19683,5.89,7.61,5943,5887
CG32645,DRSC19889,14.3,9.25,4445,5493
scu,DRSC20369,2.62,5.37,6781,6631
scu,DRSC27026,8.94,12.6,6051,6165
iav,DRSC18363,11.4,7.88,6263,6665
iav,DRSC25119,9.18,6.88,6558,6106
Abl,DRSC09661,1.34,2.03,5884,5800
Abl,DRSC23306,5.39,9.95,6776,6402
Tcs3,DRSC10461,1.62,2.42,5812,5921
Tcs3,DRSC29969,6.09,4.67,6090,5869
cactin,DRSC20576,2.87,3.17,2958,2492
CG9876,DRSC04586,7.47,7.87,6186,6331
CG16998,DRSC10235,3.56,3.14,6571,6021
CG9300,DRSC11064,11.2,11.9,5795,5656

The list goes on, starting with the last 4 of the part before.
target,DRSC id,"infection score, replicate 1","infection score, replicate 2","cell count, replicate 1","cell count, replicate 2"
cactin,DRSC20576,2.87,3.17,2958,2492
CG9876,DRSC04586,7.47,7.87,6186,6331
CG16998,DRSC10235,3.56,3.14,6571,6021
CG9300,DRSC11064,11.2,11.9,5795,5656
GAA1,DRSC18267,1.48,17.6,6071,4238
EAChm,DRSC10010,0.92,0.71,6212,6235
CG17834,DRSC02637,5.54,15.3,6385,5641
CG17834,DRSC26694,0.77,7.27,6504,5118
CG4622,DRSC04479,29.5,16.6,5712,6530
Naa40,DRSC16265,19,0.25,2271,403
RpS3A,DRSC17168,,,275,451
Ugt50B3,DRSC04778,10.2,1.72,6010,5817
Ugt50B3,DRSC21419,4.41,5.54,5736,7078
CG6550,DRSC07001,2.61,3.55,6846,6846
bou,DRSC17924,1.74,2.56,6191,6794
Xe7,DRSC12307,3.19,15.8,6260,4621
RecQ5,DRSC11266,4.63,5.4,7013,7460
Prx3,DRSC15883,9.5,12.3,6229,6458
Prx3,DRSC29107,0.68,12,590,2581
CG3548,DRSC04387,32.8,16.2,6062,6522
CG3548,DRSC29938,14.3,6.16,6326,6555
Nup107,DRSC01999,24.2,29.2,2452,2556
Ugt37C1,DRSC07416,12.2,13.6,6549,5682
Ugt37C1,DRSC24066,3.77,5.99,6014,5677
CG6262,DRSC23105,5.32,1.1,6526,6834
CG6262,DRSC27998,10.2,11.1,6165,6159
